Test results as given in PubChem BioAssay AID485294 (National Center for Advancing Translational Sciences (NCATS), 2010).
This is a selection; strong and weak results do not stand in their true shares. Records with an inconclusive call do not appear. Active and inactive are the calls of the source. Calls follow the shape of the dose curve; as a rule, active = well fitted inhibition curve with a large enough effect; inconclusive = small, poorly fitted or top-dose-only effect; inactive = flat fitted curve, though single readings scatter.

Sequences of proteins named here, by UniProt entry; tags and fusion partners are left off. A change or cut given only in a name is not applied to a line headed by its entry.
UniProt P00811: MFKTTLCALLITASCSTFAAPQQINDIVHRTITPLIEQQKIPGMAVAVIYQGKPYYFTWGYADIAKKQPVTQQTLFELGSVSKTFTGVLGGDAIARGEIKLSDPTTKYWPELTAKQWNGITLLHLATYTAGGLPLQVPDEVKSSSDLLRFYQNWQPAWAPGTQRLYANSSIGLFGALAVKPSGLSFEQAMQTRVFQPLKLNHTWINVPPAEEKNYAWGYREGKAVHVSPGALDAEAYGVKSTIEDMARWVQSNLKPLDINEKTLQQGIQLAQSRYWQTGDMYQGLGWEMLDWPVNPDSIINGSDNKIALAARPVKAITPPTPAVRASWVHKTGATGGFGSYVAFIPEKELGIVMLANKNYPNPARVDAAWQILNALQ

These compounds were tested against Beta-lactamase (Escherichia coli (strain K12)) (UniProt P00811) (assay: qHTS Inhibitors of AmpC Beta-Lactamase (assay with detergent)). Conditions: AmpC hydrolysis of nitrocefin, absorbance 480 nm, 0.01% Triton; at 114 µM (top of the series).
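Also: 0% = no-compound wells and -100% = no-enzyme wells; nearly all actives have a fitted effect of over 25% in size.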

Row | SMILES | activity change, negative = inhibition
1 | O=[N+]([O-])c1cc([N+](=O)[O-])c(CCN2CCOCC2)c([N+](=O)[O-])c1 | inactive: -1.9%
2 | CCNC(=S)/N=C(\N)N[N+](=O)[O-] | inactive: -4.04%
3 | O=C(NC1CCS(=O)(=O)C1)NP(=S)(Oc1ccccc1)Oc1ccccc1 (stereo not drawn) | inactive: 0.932%
4 | c1ccc(-c2nn[nH]n2)c(-c2nn[nH]n2)c1 | inactive: -6.71%
5 | Cc1ccc(NP(=O)(Oc2cccc(C)c2)Oc2cccc(C)c2)nc1 | inactive: 3.94%
6 | Cc1ccccc1OP(=O)(Nc1ccccn1)Oc1ccccc1C | inactive: 1.27%
7 | O=c1c2cc([N+](=O)[O-])ccc2[nH]c2c([N+](=O)[O-])cc([N+](=O)[O-])cc12 | inactive: 2.14%
8 | CN(C)C(=O)Oc1noc2ccccc12 | inactive: -7.27%
9 | COC(=O)c1cc2c(s1)N=C(c1ccccc1)N(C)P2(=O)N1CCOCC1 (stereo not drawn) | inactive: -3.47%
10 | Cc1ccc(OP(=O)(Nc2ccccn2)Oc2ccc(C)cc2)cc1 | inactive: -0.673%
11 | O=C(OC1CN2CCC1CC2)c1ccccc1 (stereo not drawn) | inactive: -6.8%
12 | CCC(=O)N1C2C3N(C(=O)CC)C1C1N(C(=O)CC)C(C(N1C(=O)CC)N3C(=O)CC)N2C(=O)CC | inactive: -6.03%
13 | CC(C)(C)C(=O)NC(Sc1ccccc1)C(Cl)(Cl)Cl (stereo not drawn) | inactive: -4.12%
14 | CCOc1ccc(C2=NCC(CBr)S2)cc1 (stereo not drawn) | inactive: -0.672%
15 | CC(=O)Nc1ccc([As](=O)(O)O)c(O)c1 | inactive: -5.45%
16 | CC(=O)Nc1ccc(Oc2c([N+](=O)[O-])cc([N+](=O)[O-])cc2[N+](=O)[O-])cc1 | inactive: -0.228%
17 | CC(=O)c1ccc(N2CC2c2ccncc2)cc1 (stereo not drawn) | inactive: 0.467%

Row | SMILES | activity change, negative = inhibition
18 | Cc1ccccc1CN(C)C(=O)COC(=O)C(O)(c1ccccc1)c1ccccc1 | inactive: -5.58%
19 | C[C@H]1OP(=O)(Oc2ccccc2)C[C@@H]2O[C@@H]21 (stereo partly drawn) | inactive: 3.83%
20 | C[C@@H]1C=CCP(=O)(Oc2ccccc2)O1 (stereo partly drawn) | inactive: 6.07%
21 | c1nnnn1CCn1cnnn1 | inactive: -6.23%
22 | CC(C)C(=O)NC(Sc1ccccc1)C(Cl)(Cl)Cl (stereo not drawn) | inactive: -11.4%
23 | O=P(Nc1nccs1)(c1ccccc1)c1ccccc1 | inactive: 0.683%
24 | O=P(Nc1nc2ccccc2s1)(c1ccccc1)c1ccccc1 | inactive: 2.22%
25 | C[C@H]1OP(=O)(Oc2ccccc2)[C@H](O)[C@H](O)[C@H]1N=[N+]=[N-] (stereo partly drawn) | inactive: 2.58%
26 | O=P(Nc1ccccn1)(c1ccc(Br)cc1)c1ccc(Br)cc1 | inactive: -8.36%
27 | CN(C)C1(CNC(=O)c2ccc(Cl)c(S(N)(=O)=O)c2)CCCCC1 | inactive: -0.0597%
28 | C(Cc1nn[nH]n1)Cc1nn[nH]n1 | inactive: -1.81%
29 | Nc1ccc([As](=O)(O)c2ccc([N+](=O)[O-])cc2)cc1 | inactive: -7.57%
30 | O=C(OC1CN2CCC1CC2)c1cccc(Cl)c1 (stereo not drawn) | inactive: 4.21%
31 | O=[N+]([O-])c1ccc(O)c(/C=N/Nc2ccc([N+](=O)[O-])cc2[N+](=O)[O-])c1 | inactive: -9.11%
32 | O=[N+]([O-])c1ncn(CCn2cnc([N+](=O)[O-])n2)n1 | inactive: 6.92%
33 | CC(=O)NC(SC(=S)N(C)C)C(Cl)(Cl)Cl (stereo not drawn) | inactive: 2.99%
